PubChem BioAssay AID1224833 – University of Georgia, 2016
The deposit covers about 12,000 reagents; below is a random part of them. About 5,600 of all reagents (46%) were called active. 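Active calls cover z-scores past 1 in both directions, so they include lowered as well as raised rotavirus replication.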

Test: 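Human genes whose knock-down alters rotavirus replication in monkey cells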 (primary screen)
System: monkey MA104 kidney cells
Knock-down reagent: siRNA pool against human genes, 50 nM
Time to read-out: 48 h knock-down before infection; read 24 h after infection
Challenge: infection with rotavirus strain RV3 two days after transfection; infectious dose for this stage not given
Read-out: 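z-score of rotavirus antigen signal per well, from a fluorescent immunoassay, relative to non-targeting control wells on the same plate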
Scale: z-score vs non-targeting control: higher = more rotavirus replication than with non-targeting control
Hit rule: In these data the active calls have z-score vs non-targeting control at about -1 or lower, or at about 1 or higher
Calls: active = z-score beyond 1 either way; inactive = z-score within 1 of zero

Target gene	z-score vs non-targeting control	call
ARHGEF2 (Rho/Rac guanine nucleotide exchange factor 2)	1.28	active
ZNF675 (zinc finger protein 675)	-0.134	inactive
SIL1 (SIL1 nucleotide exchange factor)	-1.35	active
ABHD16A (abhydrolase domain containing 16A, phospholipase)	0.784	inactive
SDHC (succinate dehydrogenase complex subunit C)	-0.972	inactive
CLDN7 (claudin 7)	0.137	inactive
OR10V1 (olfactory receptor family 10 subfamily V member 1)	-2.17	active
LTF (lactotransferrin)	2.98	active
ARHGAP4 (Rho GTPase activating protein 4)	0.0863	inactive
SNAI1 (snail family transcriptional repressor 1)	0.104	inactive
FUT2 (fucosyltransferase 2 (H blood group))	-1.03	active
FOXO3 (forkhead box O3)	-2.1	active
OR8D1 (olfactory receptor family 8 subfamily D member 1)	0.246	inactive
AIP (AHR interacting HSP90 co-chaperone)	2.34	active
RDH5 (retinol dehydrogenase 5)	0.845	inactive
OSR2 (odd-skipped related transciption factor 2)	-0.684	inactive
KLHDC3 (kelch domain containing 3)	-0.375	inactive
CKLF (chemokine like factor)	-1.55	active
TLR1 (toll like receptor 1)	0.621	inactive
CHMP4C (charged multivesicular body protein 4C)	-1.67	active
TPD52L2 (TPD52 like 2)	0.112	inactive
OR2A2 (olfactory receptor family 2 subfamily A member 2)	0.705	inactive
ZNF219 (zinc finger protein 219)	-1.43	active
CD300LD-AS1 (CD300LD antisense RNA 1)	-2.26	active
RSPO2 (R-spondin 2)	1.64	active
FRMD5 (FERM domain containing 5)	1.28	active
RINT1 (RAD50 interactor 1)	-0.0016	inactive
FDX1 (ferredoxin 1)	1.24	active
MVD (mevalonate diphosphate decarboxylase)	0.0613	inactive
KLHL7 (kelch like family member 7)	0.0344	inactive
EDIL3 (EGF like and discoidin domains 3)	-2.06	active
RHBDF2 (rhomboid 5 homolog 2)	0.922	inactive
MRPL9 (mitochondrial ribosomal protein L9)	-0.735	inactive
SLC5A8	-0.465	inactive
TAC4 (tachykinin precursor 4)	1.47	active
IMMT (inner membrane mitochondrial protein)	-0.334	inactive
ARHGAP24 (Rho GTPase activating protein 24)	-2.18	active
HOXD10 (homeobox D10)	-0.654	inactive
OTOGL (otogelin like)	-0.558	inactive
TJAP1 (tight junction associated protein 1)	-0.302	inactive
AQP1 (aquaporin 1 (Colton blood group))	-1.87	active
RAI14 (retinoic acid induced 14)	-0.635	inactive
LACTB2 (lactamase beta 2)	1.24	active
MKLN1 (muskelin 1)	-1.01	active
ECM1 (extracellular matrix protein 1)	1.7	active

Laid out differently: 4 of the entries above
{"Target gene": "RHBDF2 (rhomboid 5 homolog 2)", "z-score vs non-targeting control": 0.922, "call": "inactive"}
{"Target gene": "MRPL9 (mitochondrial ribosomal protein L9)", "z-score vs non-targeting control": -0.735, "call": "inactive"}
{"Target gene": "SLC5A8", "z-score vs non-targeting control": -0.465, "call": "inactive"}
{"Target gene": "TAC4 (tachykinin precursor 4)", "z-score vs non-targeting control": 1.47, "call": "active"}
